Experimental data published in publication PMC8791477, “Evaluation of SARS-CoV-2 entry, inflammation and new therapeutics in human lung tissue cells” (PLoS Pathogens, 2022).

B1: IFN-β1 (protein, UniProt P01574 22-187, looked up)
Interferon beta: MSYNLLGFLQRSSNFQCQKLLWQLNGRLEYCLKDRMNFDIPEEIKQLQQFQKEDAALTIYEMLQNIFAIFRQDSSSTGWNETIVENLLANVYHQINHLKTVLEEKLEKEDFTRGKLMSSLHLKRYYGRILHYLKAKEYSHCAWTIVRVEILRNFYFINRLTGYLRN

Tested on: ACE2 expression
Assay: Modulation of ACE2 expression in enriched AT-II cells of HLT (flow cytometry)
Conditions: 20h, IL-1β 10 ng/ml, IL-10 and GM-CSF 100 ng/ml, IFN 100 U/ml

Row | Molecule | ACE2 expression in enriched AT-II cells after immune stimuli (in words)
1 | IFN-α2 | did not impact ACE2 protein production
2 | B1 | did not impact ACE2 protein production
